PubChem BioAssay AID624099 | ICCB-Longwood – 2012
Screen: 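Knock-downs relieving repression by E2 of an HPV18 LCR luciferase reporter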 (primary screen). Cell system: human C33A cervical carcinoma cells (HPV-negative) stably expressing BPV1 E2 and an HPV18 LCR luciferase reporter. Reagent: siRNA pool against human genes, 40 nM. Duration: 72 h. Measurement: 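HPV18 LCR reporter light per well, converted to plate-wise z-scores that exclude control wells, and averaged over triplicate plates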. Scale: mean z-score and z-score: higher = stronger reporter signal, weaker E2 silencing. Active means: 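Hit if mean z-score reaches 2 and two or more of three replicate z-scores also reach 2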.
The deposit covers about 21,000 reagents; shown is a part drawn at random. Over the whole deposit, 497 (2.4%) are marked active. 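Higher z means weaker E2 silencing; only reporter increases were scored, and knock-downs that hurt cell survival may mask genuine repressor factors.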 The numbers tell different reagents against one gene apart.

| target gene | reagent | mean z-score | z-score, replicate A | z-score, replicate B | z-score, replicate C | activity call |
| --- | --- | --- | --- | --- | --- | --- |
| MAP1S (GeneID 55201) | 1 | 0.23 | 1.12 | 0.57 | -1.02 | inactive |
| ACY1 (GeneID 95) | 1 | 0.91 | 0.99 | 0.66 | 1.07 | inactive |
| PDCD11 (GeneID 22984) | 1 | -0.62 | -0.55 | -0.8 | -0.52 | inactive |
| PSME3IP1P1 (GeneID 152667) | 1 | -1.32 | -1.26 | -1.35 | -1.34 | inactive |
| BAK1 (GeneID 578) | 1 | 2.03 | 1.71 | 2.32 | 2.06 | active |
| NFX1 (GeneID 4799) | 1 | -0.69 | -0.55 | -0.79 | -0.72 | inactive |
| BUB1B (GeneID 701) | 1 | 0.43 | 0.78 | 0.29 | 0.22 | inactive |
| LARP1 (GeneID 23367) | 1 | -0.06 | -0.22 | -0.03 | 0.08 | inactive |
| MED18 (GeneID 54797) | 1 | -0.3 | -0.28 | -0.49 | -0.13 | inactive |
| NLK (GeneID 51701) | 1 | 1.6 | 0.97 | 2.02 | 1.82 | inactive |
| ZNF585B (GeneID 92285) | 1 | -0.11 | 0.07 | -0.2 | -0.21 | inactive |
| H2BC14 (GeneID 8342) | 1 | -0.7 | -0.89 | -0.57 | -0.64 | inactive |
| INTS10 (GeneID 55174) | 1 | -0.07 | -0.15 | -0.69 | 0.62 | inactive |
| SLC25A11 (GeneID 8402) | 1 | -0.16 | 0.11 | -0.2 | -0.38 | inactive |
| MMD2 (GeneID 221938) | 1 | 0.76 | 0.93 | 0.69 | 0.67 | inactive |
| CWC22 (GeneID 57703) | 1 | -1.54 | -1.4 | -1.6 | -1.63 | inactive |
| C3 (GeneID 718) | 1 | 0.01 | 0.01 | 0.02 | 0.01 | inactive |
| ADIPOQ (GeneID 9370) | 1 | -0.13 | -0.05 | -0.18 | -0.15 | inactive |
| THYN1 (GeneID 29087) | 1 | 0.53 | 0.25 | 0.53 | 0.8 | inactive |
| LINC00955 (GeneID 285492) | 1 | -0.35 | -0.52 | -0.21 | -0.33 | inactive |
| CD93 (GeneID 22918) | 1 | 0 | 0.02 | 0.24 | -0.26 | inactive |
| IAH1 (GeneID 285148) | 1 | 0.4 | 0.28 | 0.39 | 0.54 | inactive |
| CPNE5 (GeneID 57699) | 1 | -1.03 | -1.09 | -0.91 | -1.09 | inactive |
| ODAD3 (GeneID 115948) | 1 | 0.44 | 0.64 | 0.25 | 0.44 | inactive |
| NUP54 (GeneID 53371) | 1 | 1.74 | 1.83 | 1.78 | 1.62 | inactive |
| PLEKHA3 (GeneID 65977) | 1 | 0.21 | 0.07 | 0.23 | 0.34 | inactive |
| LOC388922 (retired record) (GeneID 388922) | 1 | 0.8 | 0.66 | 0.8 | 0.94 | inactive |
| TMEM107 (GeneID 84314) | 1 | 1.18 | 0.96 | 1.1 | 1.47 | inactive |
| FAM209A (GeneID 200232) | 1 | -0.44 | -0.4 | -0.76 | -0.16 | inactive |
| FGF23 (GeneID 8074) | 1 | -0.78 | -0.82 | -0.83 | -0.68 | inactive |
| C2 (GeneID 717) | 1 | 1.33 | 1.62 | 0.84 | 1.52 | inactive |
| LINC02909 (GeneID 196415) | 1 | 1.17 | 1.11 | 1.18 | 1.21 | inactive |
| PRKCA (GeneID 5578) | 1 | 1 | 0.67 | 1.06 | 1.28 | inactive |
| STAG1 (GeneID 10274) | 1 | 0.3 | 0.02 | 0.45 | 0.42 | inactive |
| SMYD3 (GeneID 64754) | 1 | 0.79 | 0.54 | 0.86 | 0.97 | inactive |
| H2BC7 (GeneID 8343) | 1 | -1.12 | -1.16 | -1 | -1.21 | inactive |
| STK3 (GeneID 6788) | 1 | 1.04 | 0.86 | 1.09 | 1.18 | inactive |
| FRMD8 (GeneID 83786) | 1 | 1.31 | 1.4 | 1.53 | 0.99 | inactive |
| DNAH14 (GeneID 127602) | 1 | -0.65 | -0.56 | -0.58 | -0.8 | inactive |
| DNAH14 (GeneID 127602) | 2 | -1.33 | -0.89 | -1.36 | -1.74 | inactive |
| APPL1 (GeneID 26060) | 1 | -0.22 | 0.07 | -0.33 | -0.39 | inactive |
| RNF40 (GeneID 9810) | 1 | -0.31 | -0.16 | -0.39 | -0.38 | inactive |
| CLEC4G (GeneID 339390) | 1 | 0.42 | 0.1 | 0.65 | 0.52 | inactive |
| LOC388229 (retired record) (GeneID 388229) | 1 | -0.75 | -1.13 | -0.63 | -0.49 | inactive |
| LOC400730 (retired record) (GeneID 400730) | 1 | -0.59 | -0.65 | -0.83 | -0.28 | inactive |
| AMPD1 (GeneID 270) | 1 | 0.51 | 0.61 | 0.39 | 0.54 | inactive |
| LYLDT1 (GeneID 121273) | 1 | -0.86 | -0.57 | -0.63 | -1.37 | inactive |
| OGT (GeneID 8473) | 1 | -0.01 | -0.2 | 0.12 | 0.07 | inactive |
| MAP3K14 (GeneID 9020) | 1 | -0.2 | -0.19 | -0.57 | 0.17 | inactive |
| BTF3P11 (GeneID 690) | 1 | 0.53 | 0.82 | 0.68 | 0.08 | inactive |
| KLHL26 (GeneID 55295) | 1 | -0.57 | -0.86 | -1 | 0.15 | inactive |
| GABRQ (GeneID 55879) | 1 | -1.8 | -1.85 | -1.63 | -1.93 | inactive |
| SPSB2 (GeneID 84727) | 1 | 0.22 | 0.24 | 0.01 | 0.4 | inactive |
| CREB3L1 (GeneID 90993) | 1 | -2.1 | -2.01 | -1.6 | -2.68 | inactive |
| LOC253254 (retired record) (GeneID 253254) | 1 | 1.31 | 1.48 | 0.96 | 1.51 | inactive |
| SLC22A12 (GeneID 116085) | 1 | -1.38 | -1.32 | -1.31 | -1.53 | inactive |
| DDX59 (GeneID 83479) | 1 | 0.02 | -0.19 | 0.01 | 0.24 | inactive |

Quoted from above (3 entries):
| target gene | reagent | mean z-score | z-score, replicate A | z-score, replicate B | z-score, replicate C | activity call |
| --- | --- | --- | --- | --- | --- | --- |
| LINC00955 (GeneID 285492) | 1 | -0.35 | -0.52 | -0.21 | -0.33 | inactive |
| CD93 (GeneID 22918) | 1 | 0 | 0.02 | 0.24 | -0.26 | inactive |
| IAH1 (GeneID 285148) | 1 | 0.4 | 0.28 | 0.39 | 0.54 | inactive |
